Data on five sequences can be found in paper PMC6135047.

Chains of the proteins cited; added tags and fusions are not shown. Residues count along the entry.
UniProt Q05938, 1-176: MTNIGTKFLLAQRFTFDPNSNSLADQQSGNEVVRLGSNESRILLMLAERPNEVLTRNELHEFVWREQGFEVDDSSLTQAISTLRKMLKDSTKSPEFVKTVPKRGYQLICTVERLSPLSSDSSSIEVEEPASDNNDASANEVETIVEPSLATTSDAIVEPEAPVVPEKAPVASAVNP

For series [1], the target named is His-ToxR (UniProt Q05938). Description: EMSA. Conditions: salmon sperm DNA; recombinant protein; residues 1-176; protein details: 6xHis (pET28a); label: 5'-32P; probe letters rebuilt from the primers and the genome. A general note: In EMSA bound probe runs differently from free probe, usually more slowly.
The target of series [2] is His-ToxR (UniProt Q05938). Description: DNase I footprinting. Conditions: recombinant protein; residues 1-176; protein details: 6xHis (pET28a); label: 5'-32P on one strand; probe letters rebuilt from the primers and the genome.

With “CAGATTGCTGAATATCGGTGATGTATGAGAAATCGTTCAATGTAAAAAATATGCGCAATGATTGATGCTGGGAGAATAGAAAGGATGAGGTGGTATTTATAGTGAATATTGGTCGGGAGTTTTTAGAAAACTGAAAACGCCCTAAAAAAACACGTCTGATTTTGACAGCCTGATAAAAACGCACTTCATATAATTCGCTTGTATTGTACGAAAGGAGTGCAAGTGAATGAGTATTATCAATAGTCAGATAGCAACCAACACCAAGTTTGATGCATCGGTCCGGAATGGATTGGAATCGTCTCGTGCGGACAGTGCCGTAAAAGGCAGTTATCGAGGTGAGACCGTGCGCGTGCACAACGCCACTCAATCGCTT (double strand) [VP1667 (vopN) promoter EMSA probe]”, the binding result with His-ToxR [1] is on record as “binds”.
For “CCGATCTTGTGAGCCTAGACTAATCAAAAATGGAGAATCAGATGAGAGTATTTTTTGATCAATTCTGTATTTTTTTGAGGTCAATTCACATCTACCTGCTGTTGTATGGTGTCAGCGTACCATTCGACAAAGAATACAATGCTATCACAATAAATTTCTTATTTCGAACTTTGATTTTTCACAATAAAGCGCATGGATATCTGGTGTTTTTTCAGGAGTTTTCAGATTAACTCGCTTGAGTGACAGCTGCGTAAGCTTGAATATCAAACTCTAGCTCAGGGGGATTGAGATTCGTAGCGTATAAGTGCTGTTCATGCCGTTGATTTCGTTTTACATGTGATTTATTAGTATCGAGGAAGAACCGGATGTGTTACTGATAAACTTGGGCAATG (double strand) [vtrA footprint probe]”, the binding result with His-ToxR [2] is “binds”.
Regarding “CCGATCTTGTGAGCCTAGACTAATCAAAAATGGAGAATCAGATGAGAGTATTTTTTGATCAATTCTGTATTTTTTTGAGGTCAATTCACATCTACCTGCTGTTGTATGGTGTCAGCGTACCATTCGACAAAGAATACAATGCTATCACAATAAATTTCTTATTTCGAACTTTGATTTTTCACAATAAAGCGCATGGATATCTGGTGTTTTTTCAGGAGTTTTCAGATTAACTCGCTTGAGTGACAGCTGCGTAAGCTTGAATATCAAACTCTAGCTCAGGGGGATTGAGATTCGTAGCGTATAAGTGCTGTTCATGCCGTTGATTTCGTTTTACATGTGATTTATTAGTATCGAGGAAGAACCGGATGTGTTACTGATAAACTTGGGCAATGTTTTTTATTTAAGCTTAAAGCTGTCAAGATACTGCAAAAGAAGATCTAAGATTGTGTTTACATGATGAATAATAAATTTGAAATAAAGAATTTAGAGGTTTTTTAGTTAATGAAAGAATTTGGTGCATACCTTTCAAGTGGTTGTATTAATAATAACTCAATACAACAAAGCCAGAGCACATCAAAAGGAAATATACATATCAAAAGAGTTATGAGCTCTGAAAAAAATTAAATGATAAAAAACCACGTTTGCTTAGTGATGATCAGGCGTCTCTTATAATTACAAGAACACTGAGAAAGAATATTGCACAAAAAGCCTATGCTCGCATGTTTTCGGAGGGTGATTATTGGAAGCGTA (double strand) [vtrA promoter EMSA probe]”, the binding result with His-ToxR [1] is listed as “binds”.
For “CGAGCGAATTACTATTTGGATCAAAGGTAAACCTTTGAGCAAGTAGAAATTTGGTGCCGATGTTAGTCATTTAGTTCTTCTTAGATGGATGATGTTGTAATTATGGTGATTTATATCACAAAATTACGTTTGCGCATGGGAGATACGCGACGTTTTAGATGCTTTTAGGGGGGTAGGATAATTAAATTTTTCTAAAAAAACACCGTTTTTAGCAATATTGACCTTGAATTTACATTTGTCAGCCACATGTTAAATGACATCTTAGTGTGGTGATTTCATGGGGCTAAATCACAAAGTCGTCCCTGAAAAAGCCTGTTAGTTTAGATGTTATGGAGCACACATGAGCGAAACCGTATCTCAAAATAAAGAAACTCGTGGTTTTCAATCAGAAGTAAAACAACTACTTCATTTAATGATCCATTCTCTTTATTCCAATAAAGAGATCTTTTTGCGCGAGCTGATTTCTAACGCATCAGATGCATCAGACAAATTGCGTTTTCAGGCACTTTCGAATCCAGATTTATATGAAGGTAACGCAGATCTTGGCGTTAAGCTGTCATTTGATGAAAGTGCAAATACCTTAACGAT (double strand) [toxR promoter EMSA probe]”, the binding result in the series with His-ToxR [1] was “binds”.
With “GCATTATTGACGCCAGTATCGATGGACAGATTCAGGCGTTAAAGCAAGCGATGGTGAAACAACTCAGTGAGCGGAAAATGACGTCACCAGAGTAGGGCATCACCGCCAAATCAATCGAACACAAAGCTCAGCACATTGCTGAGCTTTGTTGTTTTCAAACGTCTTAAAACGAAAAAAATCCGACCATCTTTAGCATATTAATCGCGCCGAATGATGAAAAATAACAGCATCAAAACGGCTCTGGGTCACTCTGTTTTCATGACTCGTCTGCCGAATTCGTAACAAGCACTATAGGATTATTCATTCAAATGGCTAATGGATTTATTACCGCTTTGATGACGGATTTTGCTCACCGTTGCC (double strand) [VP1687 promoter EMSA probe]”, the binding result with His-ToxR [1] is reported as “binds”.
